From patent US20050191296A1 (YISSUM RESEARCH DEVELOPMENT COMPANY OF THE HEBREW …, published 2005)

B1: soluble ICOS (ICOS-Fc, R&D Systems) (Fc fusion)
chain: EINGSANYEMFIFHNGGVQILCKYPDIVQQFKMQLLKGGQILCDLTKTKGSGNTVSIKSLKFCHSQLSNNSVSFFLYNLDHSHANYYFCNLSIFDPPPFKVTLTGGYLHIYESQLCCQLKF

What was measured:
[1] = target: staphylococcal enterotoxin B (Staphylococcus aureus) (UniProt P01552); test: SPR (BIAcore), SEB immobilized, sB7-2 as analyte
[2] = target: staphylococcal enterotoxin B (Staphylococcus aureus, UniProt P01552 28-266); test: SPR (BIAcore), SEB immobilized, soluble receptor-Fc as analyte

Molecule | Kd [1] [nM] | Kd [2] [nM]
soluble B7-2 (B7-2-Fc, R&D Systems catalogue no. 141-B2) (from UniProt P42081 20-239) (Fc fusion) | 25 | –
B1 | – | 21
